Anti-infective test results gathered from many reports (values: NIAID ChemDB through PubChem).

Shared fields: tests in culture; species: Hepatitis C virus

ECn: concentration that inhibits the pathogen or its effect by n%.

{"SMILES": "Fc1ccccc1-c1nc2ccn(Cc3ccc(-c4ccc(C(F)(F)F)cc4C(F)(F)F)nn3)cc-2n1", "cells": "Huh7", "measure": "EC50", "read by": "luciferase", "strain or isolate": "5a", "result": "0.104 µM"}
{"SMILES": "CC[C@H](C)C(=O)O[C@H]1C[C@H](O)C=C2C=C[C@H](C)C(CC[C@@H](O)C[C@H](O)CC(=O)O)[C@H]21", "cells": "Huh 5-2", "measure": "EC50", "read by": "luciferase / replicon", "result": ">20 µM"}
{"SMILES": "CCC[C@H](NC(=O)[C@@H]1[C@H]2CCC[C@H]2CN1C(=O)[C@@H](NC(=O)[C@@H](NC(=O)c1cnccn1)C1CCCCC1)C(C)(C)C)C(=O)C(=O)NC1CC1", "measure": "EC50", "read by": "luciferase", "strain or isolate": "1b D168A", "result": "0.377 µM"}
{"SMILES": "CCC[C@H](NC(=O)[C@@H]1[C@H]2CCC[C@H]2CN1C(=O)[C@@H](NC(=O)[C@@H](NC(=O)c1cnccn1)C1CCCCC1)C(C)(C)C)C(=O)C(=O)NC1CC1", "cells": "Huh7.5", "measure": "EC50", "read by": "luciferase / reporter gene", "mutations": "Y93H+V153M+M202L+M265V", "strain or isolate": "genotype 1b", "result": "0.1582 µM"}
{"SMILES": "CC1CCC(C(=O)N(c2cc(C#CC(C)(C)C)sc2C(=O)O)C2CCC(O)CC2)CC1", "cells": "Huh7-Lunet", "measure": "EC50", "read by": "luciferase", "strain or isolate": "GT5a", "result": "0.013 µM"}
{"SMILES": "N#Cc1c(-c2ccc(F)cc2)nc(NCc2nc3ccccc3[nH]2)[nH]c1=O", "cells": "Huh7", "measure": "EC90", "read by": "replicon / PCR", "result": "0.654 µM"}
{"SMILES": "C[C@@]1(O)[C@H](O)[C@@H](CO)O[C@H]1c1ccc2c(N)ncnn12", "cells": "Huh7.5", "measure": "EC50", "read by": "PCR", "strain or isolate": "GT4a", "result": "0.88 µM"}
{"SMILES": "O=C(O)c1c(-c2ccc(Cl)cc2)nc(SCc2nc3ccccc3[nH]2)[nH]c1=O", "cells": "Huh7", "measure": "EC90", "read by": "replicon / PCR", "result": "0.879 µM"}
{"SMILES": "COC(=O)N[C@H](C(=O)N1CCC[C@H]1c1ncc(-c2ccc(-c3ccc(-c4cnc([C@@H]5CCCN5C(=O)[C@@H](NC(=O)OC)C(C)C)[nH]4)cc3)cc2)[nH]1)C(C)C", "cells": "Huh7.5", "measure": "EC50", "read by": "antigen", "strain or isolate": "HK6a", "result": "0.00006 µM"}
{"SMILES": "O=C(O)c1c(-c2ccccc2Cl)nc(NCc2nc3ccccc3[nH]2)[nH]c1=O", "cells": "Huh7", "measure": "EC50", "read by": "replicon / PCR", "result": "0.546 µM"}
{"SMILES": "CC[C@H]1C[C@]1(NC(=O)[C@@H]1C[C@@H]2CN1C(=O)[C@H](C(C)(C)C)NC(=O)OCC(C)(C)CCCCc1cccc3c1CN(C3)C(=O)O2)C(=O)NS(=O)(=O)C1CC1", "cells": "Huh7.5", "measure": "EC50", "read by": "antigen", "strain or isolate": "JCH4", "result": "0.065 µM"}
{"SMILES": "C[C@@]1(O)[C@H](O)[C@@H](CO)O[C@H]1n1cnc2c(N)ncnc21", "cells": "Huh7", "measure": "EC50", "read by": "luciferase", "strain or isolate": "6a", "result": "0.2516 µM"}
{"SMILES": "O=C(O)c1c(-c2ccc(O)cc2)nc(SCc2nc3ccccc3[nH]2)[nH]c1=O", "cells": "Huh7", "measure": "EC90", "read by": "replicon / PCR", "result": "0.452 µM"}
{"SMILES": "CC(=O)Nc1ccc(-c2ccc(Cl)cc2)c(COc2ccc(-c3nc4cc(C(=O)O)ccc4n3C3CCCCC3)cc2)c1", "cells": "Huh7", "measure": "EC50", "read by": "luciferase", "strain or isolate": "6a", "result": "1.343 µM"}
{"SMILES": "C[C@@]1(O)[C@H](O)[C@@H](CO)O[C@H]1c1cnn2c(N)ncnc12", "cells": "Huh7", "measure": "EC50", "read by": "luciferase", "strain or isolate": "GT-1b Con1", "result": ">100 µM"}
{"SMILES": "CC1=CC[C@H](C(=O)N(c2cc(C#CC(C)(C)C)sc2C(=O)O)C2CCC(O)(CO[C@H]3CCOC3)CC2)CC1", "cells": "Huh7-Lunet", "measure": "EC50", "read by": "luciferase", "strain or isolate": "GT5a", "result": "0.0088 µM"}

For reference, 2 entries again:

CC[C@H](C)C(=O)O[C@H]1C[C@H](O)C=C2C=C[C@H](C)C(CC[C@@H](O)C[C@H](O)CC(=O)O)[C@H]21 ; cells: Huh 5-2 ; measure: EC50 ; read by: luciferase / replicon ; result: >20 µM
CC1CCC(C(=O)N(c2cc(C#CC(C)(C)C)sc2C(=O)O)C2CCC(O)CC2)CC1 ; cells: Huh7-Lunet ; measure: EC50 ; read by: luciferase ; strain or isolate: GT5a ; result: 0.013 µM

Conditions beyond the fields shown may differ between rows.